Experimental data reported in ChEMBL document CHEMBL3272034.
The source made the active and inactive calls. The calls are words filed in the database; no cut-off is given here.

Tested on: Ehrlich
Assay: Antitumor activity against mouse Ehrlich carcinoma cells implanted in CD1 mouse assessed as tumor free survivor at 0.5 to 2.5 mg/kg administered every day for 6 days starting on day of challenge

**Q.** `Cc1[nH]c(=O)[nH]c(=O)c1CN(CCCl)CCCl` was tested. Which Activity did it give?
**A.** inactive
